According to publication PMC6379637 (2019):

Molecular target: A/H3N2 neuraminidase
Assay type: biochemical, influenza A/H3N2 virus

CC(=O)N[C@H]1[C@H]([C@H](O)[C@H](O)CO)OC(C(=O)O)=C[C@@H]1N=C(N)N [Zanamivir, zanamivir hydrate]
IC50: 1 nM
